Pooled drug test results. Numbers come from NIAID ChemDB, via PubChem.

Blank or dashed fields: not listed here.

SMILES,tested at,organism,read-out,method,strain or isolate,target,test,value
c1cncc(-c2cncc(N3CCN(c4cccc5[nH]ccc45)CC3)n2)c1,1 µM,Cytomegalovirus,inhibition,,,UL97 kinase,target,<50%
COc1nc(C(=O)NNC(=O)c2nc(OC)c3ccccc3c2-c2ccccc2)c(-c2ccccc2)c2ccccc12,6.25 µg/mL,Mycobacterium tuberculosis,inhibition,resazurin,H37Rv,,culture,-13%
CCOc1cccc(C(=O)O)c1,,Mycobacterium tuberculosis,MIC,,H37Rv,,culture,50 µg/mL
COc1ccc(-c2cncc(N3CCN(c4cccc(Cl)c4)CC3)n2)cc1OC,1 µM,Cytomegalovirus,inhibition,,,UL97 kinase,target,<50%
O=C(O)c1cc(-c2ccncc2)nc2ccccc12,,Mycobacterium tuberculosis,MIC bound,resazurin,H37Rv,,culture,>6.25 µg/mL
NC(=O)NC1NC(=O)NC1=O,,Mycobacterium tuberculosis,MIC,,H37Rv,,culture,50 µg/mL
CCCCN(CCCC)C(=S)S[As](SC(=S)N(CCCC)CCCC)SC(=S)N(CCCC)CCCC,128 µg/mL,Mycobacterium tuberculosis,inhibition,BACTEC,H37Rv,,culture,97%
CCCCCCCCCCCCCCNC(N)=O,,Mycobacterium tuberculosis,MIC,,H37Rv,,culture,>100 µg/mL
CC(=O)OC[C@@]12C[C@@H](O)C(C)=CC1O[C@H]1[C@@H](O)[C@H](OC(C)=O)[C@]2(C)[C@@]12CO2,,Mycobacterium tuberculosis,MIC bound,BACTEC,H37Rv,,culture,>12.5 µg/mL
Cc1cc(C)c(-c2c(O)c(Br)c(-c3c(C)cc(C)c(Br)c3C)c(O)c2Br)c(C)c1Br,,Mycobacterium tuberculosis,MIC,,H37Rv,,culture,>100 µg/mL
COc1ccc(NC(=O)C(=O)c2c(O)c3ccc(O)cc3oc2=O)c([N+](=O)[O-])c1,,Mycobacterium tuberculosis,MIC bound,BACTEC,H37Rv,,culture,>12.5 µg/mL
O=C(Nc1ccccn1)c1ccccc1[N+](=O)[O-],,Mycobacterium tuberculosis,MIC,,H37Rv,,culture,>100 µg/mL
Fc1ccc(N2CCCCC2)c(NC(=S)c2ccncc2)c1,10 µM,,inhibition,kinase activity,,ErbB4,host protein,-8%
OCc1ccc(-c2cncc(N3CCN(c4ccc(Cl)c(Cl)c4)CC3)n2)cc1,,Cytomegalovirus,IC50,,,UL97 kinase,target,<10 µM
C[C@H]1[C@H](c2ccccc2)OC(c2ccccc2)N1C,,Mycobacterium tuberculosis,MIC bound,BACTEC,H37Rv,,culture,>12.5 µg/mL
Fc1ccc(N2CCN(c3cncc(-c4ccc(F)c(Cl)c4)n3)CC2)c(F)c1,,Cytomegalovirus,IC50,,,UL97 kinase,target,<100 µM
O=C1c2ccccc2C(=O)c2ccccc21,,Mycobacterium tuberculosis,MIC,,H37Rv,,culture,>100 µg/mL
COc1ccc(N2CCN(c3cncc(-c4ccccc4Oc4ccccc4)n3)CC2)cc1OC,,Cytomegalovirus,IC50,,,UL97 kinase,target,<100 µM
CCN(CC)c1ccc2nc(C)cc(C)c2c1,,Mycobacterium tuberculosis,MIC,,H37Rv,,culture,>100 µg/mL
CC1CC(C)(C)NCCNC(C)CC(C)(C)NCCN1,6.25 µg/mL,Mycobacterium tuberculosis,inhibition,resazurin,H37Rv,,culture,-2%
Cc1ccc(N2CCN(c3cncc(-c4ccccc4)n3)CC2)cc1,,Cytomegalovirus,IC50,,,UL97 kinase,target,<100 µM

The last 2 rows once more:

| SMILES | tested at | organism | read-out | method | strain or isolate | target | test | value |
|---|---|---|---|---|---|---|---|---|
| CC1CC(C)(C)NCCNC(C)CC(C)(C)NCCN1 | 6.25 µg/mL | Mycobacterium tuberculosis | inhibition | resazurin | H37Rv |  | culture | -2% |
| Cc1ccc(N2CCN(c3cncc(-c4ccccc4)n3)CC2)cc1 |  | Cytomegalovirus | IC50 |  |  | UL97 kinase | target | <100 µM |

MIC bound: limit read from a one-dose screen. Conditions beyond the fields shown may differ between rows. Percent inhibition refers to the dose given; in toxicity tests it is the harm to the cells. ICn: concentration for n% inhibition.